Compound potency records, mixed from different reports. Data source: NIAID ChemDB in PubChem.

Shared fields: target-level tests; organism: Hepatitis C virus; protein: RNA-dependent RNA polymerase; read-out: IC50

Lines come from different laboratories, so protocols vary. ICn: concentration for n% inhibition. a–b is a range or a potency band.

compound	value
O=C(O)C(Cc1ccccc1)N(C(=O)c1ccc(Cl)cc1Cl)c1ccc(-c2cc3ccccc3o2)cc1	<5 µM
CN1CCN(/N=C\c2ccc(O)c(O)c2)CC1	>400 µM
COc1cc(C(=O)N2[C@@H](c3nccs3)[C@H](c3noc(C4CC4)n3)C[C@@]2(CC(C)C)C(=O)O)ccc1C(C)(C)C	<50 µM
O=C(O)c1cc2nc(-c3ccc(-c4ccc(F)cc4F)cc3)c(C3CCCCC3)c(=O)n2[nH]1	1–10 µM
NN1CCN(/N=C\c2ccc(O)c(O)c2O)CC1	10–20 µM
CC(C)C[C@@]1(C(=O)O)C[C@@H](c2nc3ccccc3s2)[C@H](c2nccs2)N1C(=O)c1ccc(C(C)(C)C)c(Br)c1	<50 µM
Clc1cc(Cl)cc(Oc2ccc(-c3cnc4c(-c5nn[nH]n5)cnn4c3C3CCCCC3)cc2)c1	1–10 µM
C[N+]1(Cc2ccccc2)CCN(/N=C\c2ccc(O)c(O)c2O)CC1	30–40 µM
CC(C)=CCN(C(=O)c1ccc(Cl)cc1Cl)[C@@H](Cc1ccccc1)C(=O)O	5–20 µM
O=Cc1ccc(O)c(O)c1O	7 µM
O=C(O)c1ccccc1-c1ccc(CN(C(=O)c2ccc(Cl)cc2Cl)[C@@H](Cc2ccccc2)C(=O)O)o1	<5 µM
NC(=O)c1cnn2c(-c3cccc(C(F)(F)F)c3)ccnc12	>10 µM
CC(C)C[C@@]1(C(=O)O)C[C@@H](c2nccs2)[C@H](c2nccs2)N1C(=O)c1ccc(C(C)(C)C)cc1	<50 µM
O=Cc1cc(O)c(O)c(O)c1	1000 µM
O=C(O)c1cnn2c(-c3cccc(-c4ccccc4Oc4ccccc4)c3)ccnc12	1–10 µM
COc1cc(C(=O)N2[C@@H](c3nccs3)[C@@H](c3nsc(C)n3)C[C@@]2(CC(C)C)C(=O)O)ccc1C(C)(C)C	<50 µM
CC(C)S(=O)(=O)Nc1cnn2c(C3CCCCC3)c(-c3ccc(OCc4ccccc4)cc3)cnc12	>10 µM
COc1cc(C(=O)N2[C@@H](c3cscn3)[C@H](c3noc(C)n3)C[C@@]2(CC(C)C)C(=O)O)ccc1C(C)(C)C	<50 µM
O=C(O)c1c[nH]n2c(=O)c(CC3CCCCC3)c(-c3ccc(OCc4ccccc4)cc3)nc12	1–10 µM
COc1cc(C(=O)N2[C@@H](c3nccs3)[C@H](c3nc(C)no3)C[C@@]2(CC(C)C)C(=O)O)ccc1C(C)(C)C	<50 µM
COc1cccc(-c2cc(-c3ccccc3)nc3cc(C(=O)O)nn23)c1	>10 µM
O=C(O)C(Cc1ccccc1)N(Cc1ccc(-c2cccs2)s1)C(=O)c1ccc(Cl)cc1Cl	<5 µM

2 of the rows above, restated:

compound	value
CC(C)S(=O)(=O)Nc1cnn2c(C3CCCCC3)c(-c3ccc(OCc4ccccc4)cc3)cnc12	>10 µM
O=C(O)c1c[nH]n2c(=O)c(CC3CCCCC3)c(-c3ccc(OCc4ccccc4)cc3)nc12	1–10 µM